Tags and fusion partners may be left off the protein sequences shown.
Biological target: T1, RpoN (sigma-54) (Vibrio parahaemolyticus RIMD2210633) (UniProt Q87LE2)
T1 sequence (looked up): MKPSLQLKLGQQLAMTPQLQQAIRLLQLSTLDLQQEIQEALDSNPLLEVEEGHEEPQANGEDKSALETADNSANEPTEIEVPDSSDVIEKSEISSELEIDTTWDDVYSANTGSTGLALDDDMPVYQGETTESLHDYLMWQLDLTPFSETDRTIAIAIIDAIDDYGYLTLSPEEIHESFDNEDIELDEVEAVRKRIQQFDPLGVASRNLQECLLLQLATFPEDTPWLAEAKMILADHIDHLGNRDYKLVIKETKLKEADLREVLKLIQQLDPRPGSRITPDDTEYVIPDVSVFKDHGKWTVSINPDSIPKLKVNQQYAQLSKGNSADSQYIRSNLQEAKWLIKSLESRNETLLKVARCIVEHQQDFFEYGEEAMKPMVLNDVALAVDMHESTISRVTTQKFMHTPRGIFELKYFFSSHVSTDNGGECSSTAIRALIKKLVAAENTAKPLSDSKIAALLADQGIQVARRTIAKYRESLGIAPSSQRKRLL
Assay: EMSA
Conditions: EMSA: 20 µl with 10 ng FAM probe, 4 µl EMSA buffer (10 mM NaCl, 0.1 mM DTT, 0.1 mM EDTA, 10 mM Tris pH 7.4), 1 µl poly-dIdC, 25 °C 0.5 h, 6% native PAGE; recombinant protein; residues 1-488; label: FAM; probe letters rebuilt from the primers and the genome

Sequence: GAAAAACCTCGCCAAAGACCTGCTAAATATTTATATATCGATTTTTATAATTAGATTTGAAGCTTTAATTATTAACATTAAGATTAATAGAGTTCTTATAGCTGTTATAAAAACTATTGACGGCATAATGAATCATTTTTTTATCAAAGCAATCATGAATTGTTGAACAATTTTAAATATCCAACCAGGTTCAAATTTTTGACACTCAAACTTTCACCCGTCAAAAAACCGATGTTAGTTTGGCCGAGAAAATCTAACCGAAGTATTTTTCATTTAGCAGGAATATATATATTAACCCCATCATTTATATGGAGTCCTTATCGTCGACCTGCAGGCA (double strand) [VPA1044 promoter]
- binding result: binds
